Measured values from publication PMC11053914 (Viruses, 2024).

Test system: HIV-1 NL4-3 packaged with A3G
Conditions: read-out: IC50, infectivity of the A3G-containing viruses; HEK293T co-transfected with pNL4-3 and pVR-A3G-cmyc; peptides 25, 50, 100 μM added 4 h post-transfection; supernatants at 48 h tested in TZM-bl cells; three independent experiments

CC[C@H](C)[C@H](NC(=O)[C@@H](NC(=O)[C@H](CC(C)C)NC(=O)CNC(=O)[C@H](C)NC(=O)[C@H](CC(=O)O)NC(=O)[C@H](CCCNC(=N)N)NC(C)=O)C(C)C)C(=O)N[C@H](C(=O)N[C@H](C(=O)N[C@@H](Cc1ccc(O)cc1)C(=O)N[C@@H](Cc1c[nH]c2ccccc12)C(=O)NCC(=O)N[C@@H](CC(C)C)C(=O)N[C@@H](Cc1c[nH]cn1)C(=O)N[C@H](C(=O)NCC(=O)N[C@@H](CCCCN)C(N)=O)[C@@H](C)O)[C@@H](C)O)[C@@H](C)O [VMP-60]
IC50: 97 µM

CC[C@H](C)[C@H](NC(=O)[C@H](C)NC(=O)[C@H](CC(C)C)NC(=O)CNC(C)=O)C(=O)N[C@H](C(=O)N[C@H](C(=O)N[C@@H](Cc1ccc(O)cc1)C(=O)N[C@@H](Cc1c[nH]c2ccccc12)C(=O)NCC(=O)N[C@@H](CC(C)C)C(=O)N[C@@H](Cc1c[nH]cn1)C(=O)N[C@H](C(=O)NCC(=O)N[C@@H](CCC(=O)O)C(=O)N[C@@H](CCCNC(=N)N)C(=O)NCC(N)=O)[C@@H](C)O)[C@@H](C)O)[C@@H](C)O [VMP-63]
IC50: 49.4 µM

CC[C@H](C)[C@H](NC(=O)[C@H](C)NC(=O)[C@H](CO)NC(=O)[C@H](CC(N)=O)NC(=O)[C@H](CO)NC(=O)[C@H](Cc1ccccc1)NC(=O)[C@H](CS)NC(=O)[C@H](CC(=O)O)NC(=O)[C@H](Cc1ccccc1)NC(=O)[C@H](Cc1ccc(O)cc1)NC(=O)[C@H](Cc1ccc(O)cc1)NC(=O)[C@H](CC(C)C)NC(=O)[C@H](CCCNC(=N)N)NC(C)=O)C(N)=O [VMP-108]
IC50: 55.1 µM
